Literature values as cited in article PMC9922164.
pKd: −log10 of the molar value.

Target: TLR4 (Homo sapiens) (UniProt O00206)

Substance: Spike protein trimer trimer (from UniProt P0DTC2)
- pKd: 6.52
